Values of other authors in patent US11054415B2, “Preparation of bioconjugates and antibodies for the immunodetection of anatoxin-a” (dated 2021).

Tested on: mice

CC(=O)C1=CCCC2CCC1N2 (stereo not shown)
Time to death after intraperitoneal injection into mice: less than 5 minutes
